Kdimer by position in the HIV-1 leader RNA

Sequence of the HIV-1 NL4-3 5' RNA, positions 1 to 437, as numbered in the source:
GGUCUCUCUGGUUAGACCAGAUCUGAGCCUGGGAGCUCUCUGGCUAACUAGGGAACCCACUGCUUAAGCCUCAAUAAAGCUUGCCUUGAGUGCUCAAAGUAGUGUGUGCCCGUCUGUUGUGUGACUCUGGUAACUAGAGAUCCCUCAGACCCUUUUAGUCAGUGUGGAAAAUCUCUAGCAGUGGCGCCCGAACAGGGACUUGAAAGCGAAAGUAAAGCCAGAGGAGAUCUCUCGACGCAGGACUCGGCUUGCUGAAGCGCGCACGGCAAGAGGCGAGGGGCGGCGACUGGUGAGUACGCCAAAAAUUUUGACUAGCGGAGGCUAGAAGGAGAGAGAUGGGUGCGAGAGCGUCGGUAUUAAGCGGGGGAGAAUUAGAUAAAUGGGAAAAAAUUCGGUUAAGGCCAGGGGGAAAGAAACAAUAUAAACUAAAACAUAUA

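Mutant RNA libraries with 1G, 2G or 3G starts, with or without cap, were folded at 37 °C for 30 min. High salt was 300 mM KCl and 5 mM MgCl2, low salt 40 mM KCl and 0.1 mM MgCl2; monomer and dimer were parted on a native gel. Mutation frequencies in the two bands give Kdimer.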

Values are log2 Kdimer, the median over the changes at each position: higher means that changes there hinder dimer formation, below 0 that they favour it.
One numbering serves 1G, 2G and 3G.
A position is written with its base.

A192 (domain PBS): 2G uncapped low-salt 0.06; 1G uncapped high-salt 0.10.
C193 (domain PBS): 2G uncapped low-salt -0.29; 1G uncapped high-salt -0.02.
A194 (domain PBS): 2G uncapped low-salt 0.39; 1G uncapped high-salt 0.13.
G195 (domain PBS): 2G uncapped low-salt 0.37; 1G uncapped high-salt 0.31.
G196 (domain PBS): 2G uncapped low-salt 0.45; 1G uncapped high-salt 0.39.
G197 (domain PBS): 2G uncapped low-salt 0.55; 1G uncapped high-salt 0.29.
A198 (domain PBS): 2G uncapped low-salt -0.29; 1G uncapped high-salt 0.22.
C199 (domain PBS): 2G uncapped low-salt -0.13; 1G uncapped high-salt 0.06.
U200 (domain PBS): 2G uncapped low-salt 0.11; 1G uncapped high-salt 0.18.
U201 (domain PBS): 2G uncapped low-salt 0.15; 1G uncapped high-salt 0.06.
G202 (domain PBS): 2G uncapped low-salt -0.37; 1G uncapped high-salt -0.18.
A203 (domain PBS): 2G uncapped low-salt 0.72; 1G uncapped high-salt 0.45.
A204 (domain PBS): 2G uncapped low-salt -0.07; 1G uncapped high-salt 0.17.
A205 (domain PBS): 2G uncapped low-salt -0.12; 1G uncapped high-salt 0.08.
G206 (domain PBS): 2G uncapped low-salt -0.81; 1G uncapped high-salt -0.39.
C207 (domain PBS): 2G uncapped low-salt -0.58; 1G uncapped high-salt -0.17.
G208 (domain PBS): 2G uncapped low-salt -0.28; 1G uncapped high-salt -0.04.
A209 (domain PBS): 2G uncapped low-salt 0.86; 1G uncapped high-salt 0.84.
A210 (domain PBS): 2G uncapped low-salt -0.18; 1G uncapped high-salt 0.19.
A211 (domain PBS): 2G uncapped low-salt -0.50; 1G uncapped high-salt -0.18.
G212 (domain PBS): 2G uncapped low-salt -0.83; 1G uncapped high-salt -0.49.
U213 (domain PBS): 2G uncapped low-salt -0.22; 1G uncapped high-salt 0.39.
A214 (domain PBS): 2G uncapped low-salt 0.00; 1G uncapped high-salt 0.03.
A215 (domain PBS): 2G uncapped low-salt -0.21; 1G uncapped high-salt 0.02.
A216 (domain PBS): 2G uncapped low-salt -0.58; 1G uncapped high-salt -0.08.
G217 (domain antiPAS): 2G uncapped low-salt -1.08; 1G uncapped high-salt -0.54.
C218 (domain antiPAS): 2G uncapped low-salt -0.93; 1G uncapped high-salt -0.35.
C219 (domain antiPAS): 2G uncapped low-salt 0.55; 1G uncapped high-salt 0.60.
A220 (domain antiPAS): 2G uncapped low-salt -0.09; 1G uncapped high-salt 0.21.
G221 (domain antiPAS): 2G uncapped low-salt 0.37; 1G uncapped high-salt 0.05.
A222 (domain antiPAS): 2G uncapped low-salt 0.47; 1G uncapped high-salt 0.12.
G223 (domain antiPAS): 2G uncapped low-salt 0.54; 1G uncapped high-salt 0.13.
G224: 2G uncapped low-salt -0.45; 1G uncapped high-salt -0.02.
A225: 2G uncapped low-salt -0.11; 1G uncapped high-salt -0.04.
G226: 2G uncapped low-salt -0.60; 1G uncapped high-salt -0.29.
A227 (domain CU): 2G uncapped low-salt 1.25; 1G uncapped high-salt 0.75.
U228 (domain CU): 2G uncapped low-salt 0.19; 1G uncapped high-salt 0.23.
C229 (domain CU): 2G uncapped low-salt 0.32; 1G uncapped high-salt 0.33.
U230 (domain CU): 2G uncapped low-salt 0.62; 1G uncapped high-salt 0.42.
C231 (domain CU): 2G uncapped low-salt 0.05; 1G uncapped high-salt 0.30.
U232 (domain CU): 2G uncapped low-salt 1.04; 1G uncapped high-salt 0.30.
C233 (domain CU): 2G uncapped low-salt 0.85; 1G uncapped high-salt 0.78.
G234: 2G uncapped low-salt 0.00; 1G uncapped high-salt 0.44.
A235: 2G uncapped low-salt -1.30; 1G uncapped high-salt -0.82.
C236: 2G uncapped low-salt 1.61; 1G uncapped high-salt 2.03.
G237: 2G uncapped low-salt 0.78; 1G uncapped high-salt 0.70.

Excerpt, the final 3 entries:

position,domain,2G uncapped low-salt,1G uncapped high-salt
A235,none,-1.30,-0.82
C236,none,1.61,2.03
G237,none,0.78,0.70

From the data files of Ye et al. 2022, doi:10.1038/s41594-022-00746-2.